Anti-infective test results gathered from many reports (values: NIAID ChemDB through PubChem).

All rows: growth or infection tests; organism: Mycobacterium tuberculosis

Two numbers with a dash give a range or band.

SMILES	dose	read by	cell line	strain or isolate	setting	measure	mutations	value
N#CC1(C#N)NC(c2cccs2)C(C#N)(C#N)NC1c1cccs1		resazurin		H37Rv		MIC bound		>6.25 µg/mL
CC1N=C(N)NC(c2ccc(N(C)C)cc2)=C1C(=O)Nc1ccc(S(=O)(=O)c2ccc(NC(=O)C3=C(c4ccc(N(C)C)cc4)NC(N)=NC3C)cc2)cc1				INH resistant		MIC		3.78 µM
CCOC(=O)Cc1cc(C2CCCC2)nc2ccccc12				H37Rv		MIC		>6.25 µg/mL
Cc1c(Sc2ccccc2)[n+](=O)c2cc(F)c(F)cc2n1[O-]	6.25 µg/mL			H37Rv		inhibition		100%
CC1N=C(N)NC(c2c(Cl)cccc2Cl)=C1C(=O)Nc1ccc(S(=O)(=O)c2ccc(NC(=O)C3=C(c4c(Cl)cccc4Cl)NC(N)=NC3C)cc2)cc1				INH resistant		MIC		1.96 µM
CN(CC#CC(C)(C)C)c1cccc2c1CCC(=O)N2				H37Rv		MIC		>6.25 µg/mL
c1ccc(N=c2ncc3nc(-c4ccccc4)c(-c4ccccc4)n(-c4ccccc4)c-3n2)cc1	12.5 µg/mL	BACTEC		H37Rv		inhibition		84%
CN1C(NNC(=O)c2cnccn2)=NS(=O)(=O)c2ccc(Cl)cc21				Clinical isolates drug-resistant		MIC		>16 µg/mL
CCCCS(=O)(=O)Nc1ccc2[nH]c(C(=O)OC(C)C)c(C)c2c1		resazurin		H37Rv		MIC90		0.78 µM
COc1cc2cccnc2c2[nH]cc(C(=O)O)c(=O)c12	12.5 µg/mL	BACTEC		H37Rv		inhibition		-45%
CCCCS(=O)(=O)Nc1ccc2[nH]c(C#N)c(C)c2c1		resazurin		DRM167 32x11		MIC90	G240S DG167-resistant	>100 µM
O=[N+]([O-])c1cccc(C=Nc2ccc(-c3nnc(NCc4ccccc4)s3)cc2)c1	6.25 µg/mL			H37Rv		inhibition		0%
COc1cccc2c1cc1c3c(cc4c(c32)OCO4)C(=O)N1		resazurin		H37RvIr		MIC		25 µg/mL
Cc1cc2c(cc1N)C(C)C1(CCC(=O)N2Cc2ccccc2)OCCO1	12.5 µg/mL	BACTEC		H37Rv		inhibition		21%
COC(=O)Cc1cc(C2CCCCC2)nc2ccccc12				H37Rv		MIC		>6.25 µg/mL
Cc1c(S(=O)(=O)c2ccccc2)[n+](=O)c2ccccc2n1[O-]				H37Rv		MIC		6.25 µg/mL
CC(=O)OCc1cc(=O)n(C)c2c3c4c(cc12)c(C)cc(=O)n4CO3				CS-R		MIC		3.2 µg/mL
C[C@H]1CN(c2c(F)cc3c(=O)c(C(=O)O)cn(C4CC4)c3c2OC(F)F)CCN1				100 isolates		MIC90		1 µg/mL
O=[N+]([O-])c1cccc(C=Nc2ccc(-c3nnc(Nc4ccccc4)s3)cc2)c1	6.25 µg/mL			H37Rv		inhibition		29%
COC(=O)c1cc(C2CCCCC2)c2c(C3CCCCC3)cccc2n1				H37Rv		MIC		6.25 µg/mL
CNC1CCCN(c2c(F)cc3c(=O)c(C(=O)O)cn(C4CC4)c3c2OC)C1				100 isolates		MIC50		2 µg/mL
O=C(NCc1cccnc1)c1cc(Cl)ccc1O				H37Rv	14 d	MIC		500 µM
Cn1cc(NC(=O)c2cc(NC(=O)c3cc(NC=O)cn3C)cn2C)cc1C(=O)NCCC(=N)N				PZA-R		MIC		6.4 µg/mL
Cc1c(C#N)[nH]c2ccc(N3CCCC3)cc12		resazurin		H37Rv		MIC90		50 µM
COc1ccc(C2=C(C(=O)Nc3ccc(S(=O)(=O)c4ccc(NC(=O)C5=C(c6ccc(OC)cc6)NC(N)=NC5C)cc4)cc3)C(C)N=C(N)N2)cc1				H37Rv		MIC		0.86 µM
O=C(NNC1=NS(=O)(=O)c2ccccc2N1c1ccccc1)c1cnccn1				Clinical isolates drug-sensitive		MIC		8–16 µg/mL
O=C(NCc1cccnc1)c1cc(Br)cc(Br)c1O				H37Rv	14 d	MIC		125 µM
O=C(O)Cc1cc(C2CCCCC2)nc2c(C3CCCCC3)cccc12				H37Rv		MIC		>6.25 µg/mL
COc1cccc(C(=O)NCc2ccccn2)c1O				H37Rv	21 d	MIC		250 µM
CO[C@H]1/C=C/O[C@@]2(C)Oc3c(C)c(O)c4c(O)c(c(/C=N/N5CCN(Cc6ccccc6)CC5)c(O)c4c3C2=O)NC(=O)/C(C)=C\C=C\[C@H](C)[C@H](O)[C@@H](C)[C@@H](O)[C@@H](C)[C@H](OC(C)=O)[C@@H]1C				KM-R		MIC		0.01 µg/mL
O=C(NCc1ccccn1)c1ccc(Cl)cc1O				H37Rv	21 d	MIC		250 µM
CN(CCCCC(O)CN(C)C(=S)S)C(=S)S		BACTEC		H37Rv		MIC		≥12.5 µg/mL
Cc1ccc2c(c1)n([O-])c(CBr)c(Sc1ccccc1)[n+]2=O	6.25 µg/mL			H37Rv		inhibition		0%
Cc1ccc(C(=O)NCc2cccnc2)c(O)c1				H37Rv	21 d	MIC		500 µM
O=C(Nc1ccc(F)cc1)N(Cc1cc2ccc(F)cc2[nH]c1=O)C1CCCCC1		broth dilution		H37Rv (ATCC 27294)	7 d	MIC		>64 µg/mL
O=C(O)Cc1cc(C2CCCCC2)nc2ccccc12	6.25 µg/mL			H37Rv		inhibition		15%
CCCCS(=O)(=O)Nc1ccc2[nH]c(C(=O)N[C@H](C)c3ccccc3)c(C)c2c1		resazurin		H37Rv		MIC90		3.1 µM
CC(NC(=O)c1ccccc1C(F)(F)F)c1nnc(SCc2ccc(F)cc2)n1Cc1cccnc1		broth dilution		H37Rv (ATCC 27294)	14 d	MIC		>64 µg/mL
O=C(NCc1ccccc1)c1cc(Br)cc(Br)c1O				H37Rv	21 d	MIC		32 µM
Cc1ccc2c(O)c(C)c(=O)[nH]c2n1		BACTEC		H37Rv		EC50		>6.25 µg/mL
COc1ccc2cc1-c1cc(cc(Br)c1O)C[C@H]1c3cc4c(cc3CCN1C)Oc1c(OC)cc3c(c1O4)[C@H](C2)N(C)CC3		resazurin		H37Rv		MIC		3.1 µg/mL
Cc1ncc(N)nc1C		BACTEC		H37Rv		MIC bound		>12.5 µg/mL
COc1cc(C2=NN(C(=O)COc3ccc4ccccc4c3)[C@H](c3ccc(O)cc3)C2)c(C)cc1OCC(=O)O				H37Rv		MIC		>6.25 µg/mL
COC(=O)C1=C(O)C(C(=O)OC)=C2C1=C(C(=O)OC)C(=O)C2C(=O)OC	6.25 µg/mL	resazurin		H37Rv		inhibition		1%
CCOC(=O)c1[nH]c2ccc(N)cc2c1C		resazurin		H37Rv		MIC90		>100 µM
COc1ccc2cc(CN(C(=O)Nc3ccc(Cl)cc3)C3CCCCC3)c(=O)[nH]c2c1		broth dilution		H37Rv (ATCC 27294)		MIC		>64 µg/mL
COC(=O)c1cc(C2CCCC2)c2ccccc2n1	6.25 µg/mL			H37Rv		inhibition		0%
CCOC(=O)N1CCN(c2ccc3cc(-c4ccccc4)c(=O)[nH]c3n2)CC1	6.25 µg/mL	BACTEC		H37Rv		inhibition		16%
CO[C@H]1/C=C/O[C@@]2(C)Oc3c(C)c(O)c4c(c3C2=O)C(=O)C(CO)=C(NC(=O)/C(C)=C\C=C\[C@H](C)[C@H](O)[C@@H](C)[C@@H](O)[C@@H](C)[C@H](OC(C)=O)[C@@H]1C)C4=O		BACTEC	VERO	H37Rv		MIC		6.25 µg/mL
COC(=O)c1c(C2CCCC2)nc2ccccc2c1C1CCCC1	6.25 µg/mL			H37Rv		inhibition		97%
COc1cc2c3c(c1OC)-c1cc4c(cc1CC3N(C=O)CC2)OCO4		resazurin		MTY147		MIC		>50 µg/mL
CC(NC(=O)c1ccccc1Cl)c1nnc(SCc2ccc(F)cc2)n1Cc1cccnc1		broth dilution		H37Rv (ATCC 27294)	14 d	MIC		>64 µg/mL
Cc1ccc([N+](=O)[O-])cc1NC(=O)C(=O)C1CCC2=C(Sc3ccccc3N2)C1=O		BACTEC		H37Rv		MIC bound		>12.5 µg/mL
N[C@@H]1CONC1=O				Streptomycin-resistant		MIC		<10 µg/mL
CN1CCN(C(=S)S)CC1	6.25 µg/mL	resazurin		H37Rv		inhibition		97%
CN1C(NNC(=O)c2cnccn2)=NS(=O)(=O)c2ccccc21				Clinical isolates drug-sensitive		MIC		0.5–1 µg/mL
CN1CC2CC(C1)c1cccc(=O)n1C2		BACTEC		H37Rv		MIC		≥128 µg/mL
CCCCS(=O)(=O)Nc1ccc2[nH]c(C(=O)OCC)c(C)c2c1		resazurin		DRM167 16x6		MIC90	I122S DG167-resistant	12.5 µM
CCCc1cc(=O)[nH]c2c3c(c4c(c12)OC(C)(C)C=C4)O[C@H](C)[C@@H](C)[C@@H]3O	6.25 µg/mL	resazurin		H37Rv		inhibition		87%
Cc1ccc2c(Cl)c(C)c(N3CCOCC3)nc2n1		BACTEC		H37Rv		EC50		>6.25 µg/mL
NNC(=O)c1ccncc1				INH resistant		MIC		11.37 µM
O=C(NCc1ccccn1)c1cc(Br)cc(Br)c1O				H37Rv	21 d	MIC		250 µM
CN1C(NNC(=O)c2cccnc2)=NS(=O)(=O)c2ccc(Cl)cc21				Clinical isolates drug-resistant		MIC		4–8 µg/mL
COc1cc(C2=C(C(=O)Nc3ccc(S(=O)(=O)c4ccc(NC(=O)C5=C(c6cc(OC)c(OC)c(OC)c6)NC(N)=NC5C)cc4)cc3)C(C)N=C(N)N2)cc(OC)c1OC				INH resistant		MIC		4.5 µM
O=C(NC1=NS(=O)(=O)c2ccccc2N1c1ccccc1)c1ccc(Cl)nc1				H37Rv (ATCC 27294)		MIC		>16 µg/mL
CCn1c2ccc(N)cc2c2c(N)c(-n3cccc3)ccc21		BACTEC		H37Rv		MIC bound		≤12.5 µg/mL
CCN1C(NNC(=O)c2cccnc2)=NS(=O)(=O)c2ccccc21				H37Rv (ATCC 27294)		MIC		>16 µg/mL
Cl.O=C(NCCCCCCNC(=O)N1CCCCC1)c1cccnc1		BACTEC		H37Rv		MIC		≥12.5 µg/mL
c1cc2c(N3CCOCC3)cc(N3CCOCC3)nc2nc1N1CCCCC1		BACTEC		H37Rv		EC50		>6.25 µg/mL
CCNc1nnc(-c2ccc(N=Cc3ccccc3O)cc2)s1	6.25 µg/mL			H37Rv		inhibition		0%
Cc1ccc(C(=O)NCc2ccccn2)c(O)c1				H37Rv	14 d	MIC		62.5 µM
C=C1c2c(Cl)ccc(O)c2C(O)=C2C(=O)[C@]3(O)C(O)=C(C(N)=O)C(=O)C(N(C)C)[C@@H]3[C@@H](O)[C@@H]12	12.5 µg/mL	BACTEC		H37Rv		inhibition		94%
COc1ccc(C2=C(C(=O)Nc3ccc(S(=O)(=O)c4ccc(NC(=O)C5=C(c6ccc(OC)c(O)c6)NC(N)=NC5C)cc4)cc3)C(C)N=C(N)N2)cc1O				H37Rv		MIC		1.94 µM
COc1ccc2cc1-c1cc(ccc1O)C[C@H]1c3cc4c(cc3CCN1C)Oc1c(OC)cc3c(c1O4)[C@H](C2)N(C)CC3		resazurin		H37Ra		MIC		3.1 µg/mL
CCN1C(NNC(=O)c2cnccn2)=NS(=O)(=O)c2ccccc21				H37Rv (ATCC 27294)		MIC		8 µg/mL
NC(=O)NC(=O)c1ccco1		BACTEC		H37Rv		MIC bound		>12.5 µg/mL
CC1N=C(N)NC(c2ccccc2Cl)=C1C(=O)Nc1ccc(S(=O)(=O)c2ccc(NC(=O)C3=C(c4ccccc4Cl)NC(N)=NC3C)cc2)cc1				INH resistant		MIC		1.72 µM
O=C(NCc1cccnc1)c1cc(Br)ccc1O				H37Rv	21 d	MIC		125 µM
Cc1ccc(Nc2nnc(-c3ccc(N=Cc4ccc([N+](=O)[O-])o4)cc3)s2)cc1	6.25 µg/mL			H37Rv		inhibition		22%
OC1C(O)C(O)C(O)C(O)C1O	12.5 µg/mL	BACTEC		H37Rv		inhibition		2%
Cc1ccc(Nc2nnc(-c3ccc(N=Cc4cccc([N+](=O)[O-])c4)cc3)s2)cc1	6.25 µg/mL			H37Rv		inhibition		36%
CCCCS(=O)(=O)Nc1ccc2[nH]c(C(=O)NC)c(C)c2c1		resazurin		H37Rv		MIC90		3.1 µM

The last 7 rows once more:

{"SMILES": "NC(=O)NC(=O)c1ccco1", "read by": "BACTEC", "strain or isolate": "H37Rv", "measure": "MIC bound", "value": ">12.5 µg/mL"}
{"SMILES": "CC1N=C(N)NC(c2ccccc2Cl)=C1C(=O)Nc1ccc(S(=O)(=O)c2ccc(NC(=O)C3=C(c4ccccc4Cl)NC(N)=NC3C)cc2)cc1", "strain or isolate": "INH resistant", "measure": "MIC", "value": "1.72 µM"}
{"SMILES": "O=C(NCc1cccnc1)c1cc(Br)ccc1O", "strain or isolate": "H37Rv", "setting": "21 d", "measure": "MIC", "value": "125 µM"}
{"SMILES": "Cc1ccc(Nc2nnc(-c3ccc(N=Cc4ccc([N+](=O)[O-])o4)cc3)s2)cc1", "dose": "6.25 µg/mL", "strain or isolate": "H37Rv", "measure": "inhibition", "value": "22%"}
{"SMILES": "OC1C(O)C(O)C(O)C(O)C1O", "dose": "12.5 µg/mL", "read by": "BACTEC", "strain or isolate": "H37Rv", "measure": "inhibition", "value": "2%"}
{"SMILES": "Cc1ccc(Nc2nnc(-c3ccc(N=Cc4cccc([N+](=O)[O-])c4)cc3)s2)cc1", "dose": "6.25 µg/mL", "strain or isolate": "H37Rv", "measure": "inhibition", "value": "36%"}
{"SMILES": "CCCCS(=O)(=O)Nc1ccc2[nH]c(C(=O)NC)c(C)c2c1", "read by": "resazurin", "strain or isolate": "H37Rv", "measure": "MIC90", "value": "3.1 µM"}

An empty or dashed field is not shown. Lines come from different laboratories, so protocols vary. MIC50, MIC90 and the like: level of inhibition, or share of isolates inhibited. ECn: concentration that inhibits the pathogen or its effect by n%. Inhibition is in % at the dose shown (toxicity tests: loss of growth or viability). MIC bound comes from a single tested concentration.